Tests used:
Assay type in all cases: biochemical
CoV M^pros = experiment: M^pro inhibition assays, stated across several CoV M^pros
TGEV M^pro = TGEV M^pro (Porcine transmissible gastroenteritis coronavirus, UniProt P0C6Y5); experiment: M^pro inhibition assay (continuous fluorogenic kinetic assay)
MHV M^pro = MHV M^pro (Murine coronavirus, UniProt P0C6X9); experiment: as above; conditions: approximation of k3/Ki, error less than 20%
FIPV M^pro = FIPV M^pro (Feline coronavirus, UniProt Q98VG9); experiment: as above; conditions: approximation of k3/Ki, error less than 20%
IBV M^pro = IBV M^pro (Avian infectious bronchitis virus, UniProt P0C6Y3); experiment: as above
HCoV-229E M^pro = HCoV-229E M^pro (Human coronavirus 229E, UniProt P0C6X1); experiment: as above
SARS-CoV M^pro = SARS-CoV M^pro (Severe acute respiratory syndrome coronavirus, UniProt P0C6X7); experiment: as above

Sequences of proteins named here, by UniProt entry; tags and fusion partners are left off. Residues count along the entry.
UniProt P0C6Y5, 2879-3180 limits assumed: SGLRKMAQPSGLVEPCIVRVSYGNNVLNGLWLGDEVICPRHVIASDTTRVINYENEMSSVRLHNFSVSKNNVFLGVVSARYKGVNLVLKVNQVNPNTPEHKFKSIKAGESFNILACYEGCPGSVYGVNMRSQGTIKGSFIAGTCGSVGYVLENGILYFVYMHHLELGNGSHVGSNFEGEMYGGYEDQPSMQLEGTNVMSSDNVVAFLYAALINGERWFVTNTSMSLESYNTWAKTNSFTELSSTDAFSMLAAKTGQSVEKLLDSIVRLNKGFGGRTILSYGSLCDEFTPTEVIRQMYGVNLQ
UniProt P0C6X9, 3334-3635 limits assumed: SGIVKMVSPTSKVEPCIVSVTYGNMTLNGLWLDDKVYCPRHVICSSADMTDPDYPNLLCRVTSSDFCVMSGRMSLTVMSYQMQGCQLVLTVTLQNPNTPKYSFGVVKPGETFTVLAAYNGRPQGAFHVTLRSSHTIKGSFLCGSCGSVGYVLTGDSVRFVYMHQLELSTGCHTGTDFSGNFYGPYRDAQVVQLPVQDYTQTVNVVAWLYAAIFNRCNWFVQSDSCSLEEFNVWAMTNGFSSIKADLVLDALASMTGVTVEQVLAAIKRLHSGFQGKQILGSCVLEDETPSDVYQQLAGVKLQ
UniProt Q98VG9, 2904-3205 limits assumed: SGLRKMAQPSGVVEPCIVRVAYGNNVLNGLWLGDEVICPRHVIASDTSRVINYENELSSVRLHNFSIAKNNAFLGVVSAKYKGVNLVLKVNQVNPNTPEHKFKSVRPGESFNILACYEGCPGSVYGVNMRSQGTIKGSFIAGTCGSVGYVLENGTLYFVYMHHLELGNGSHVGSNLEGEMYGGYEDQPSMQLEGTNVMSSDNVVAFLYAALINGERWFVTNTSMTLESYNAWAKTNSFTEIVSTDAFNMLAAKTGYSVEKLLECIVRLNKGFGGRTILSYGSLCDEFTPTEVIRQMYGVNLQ
UniProt P0C6X1, 2966-3265 limits assumed: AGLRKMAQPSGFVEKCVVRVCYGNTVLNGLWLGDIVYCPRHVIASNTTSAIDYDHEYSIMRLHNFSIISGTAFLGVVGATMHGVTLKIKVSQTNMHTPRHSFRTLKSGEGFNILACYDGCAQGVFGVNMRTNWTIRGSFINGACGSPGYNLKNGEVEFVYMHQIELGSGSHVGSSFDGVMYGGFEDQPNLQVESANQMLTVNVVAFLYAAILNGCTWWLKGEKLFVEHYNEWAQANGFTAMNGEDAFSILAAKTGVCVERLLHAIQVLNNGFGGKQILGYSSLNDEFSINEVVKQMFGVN

CCOC(=O)/C=C/[C@H](C[C@@H]1CCNC1=O)NC(=O)[C@H](CC(C)C)NC(=O)[C@@H](NC(=O)[C@@H](NC(=O)c1ccco1)C(C)C)C(C)C
in vitro inactivation of all CoV M^pros tested (CoV M^pros; preliminary inhibition assays, TGEV, HCoV-229E, FIPV, HCoV-NL63, MHV, HCoV-HKU1, SARS-CoV, IBV): fast in vitro inactivation | k3, range over CoV M^pros (CoV M^pros; range over the M^pros of Table 1): 2.6–19.5 × 10^−3s^−1 | Ki (CoV M^pros; read-out: Ki, range over CoV M^pros, range over the M^pros of Table 1): 0.9 to 6.7 µM | Ki (TGEV M^pro): 7.8 µM | k3 (TGEV M^pro; inactivation rate constant): 19.5 ± 0.9 × 10^−3s^−1 | kobs/[I] (MHV M^pro): 660 M⁻¹ s⁻¹ | kobs/[I] (FIPV M^pro): 23,000 M^−1•s^−1 | Ki (IBV M^pro): 4.9 µM | k3 (IBV M^pro; inactivation rate constant): 5.6 ± 0.1 × 10^−3s^−1 | Ki (HCoV-229E M^pro): 0.9 µM | k3 (HCoV-229E M^pro; inactivation rate constant): 12.1 ± 0.7 × 10^−3s^−1 | Ki (SARS-CoV M^pro): 6.7 µM | k3 (SARS-CoV M^pro; inactivation rate constant): 2.6 ± 0.2 × 10^−3s^−1

From PMC1197287 (PLoS Biology, 2005)
